Test results taken from ChEMBL document CHEMBL3085711, “Phosphorus-nitrogen compounds part 27. Syntheses, structural characterizations, antimicrobial and cytotoxic activities, and DNA interactions of new phosphazenes bearing secondary amino and pendant (4-fluorobenzyl)spiro groups” (2013).
Activity calls are given as the source filed them. The calls are words filed in the database; no cut-off is given here.

Legend:
[1] = test system: Escherichia coli; assay: Binding affinity to Escherichia coli pBR322 A/AGCTT DNA assessed as DNA strand cleavage at 625 to 2500 uM preincubated for 24 hrs prior to HindIII treatment measured after 1 hr by agarose gel electrophoresis
[2] = test system: Escherichia coli; assay: Binding affinity to Escherichia coli pBR322 DNA assessed as DNA strand cleavage at 625 to 2500 uM after 24 hrs by agarose gel electrophoresis
[3] = test system: Escherichia coli; assay: Binding affinity to Escherichia coli pBR322 DNA assessed as DNA strand cleavage at 156 to 1250 uM after 24 hrs by agarose gel electrophoresis
[4] = test system: Escherichia coli; assay: Binding affinity to Escherichia coli pBR322 G/GATCC DNA assessed as DNA strand cleavage at 625 to 2500 uM preincubated for 24 hrs prior to BamHI treatment measured after 1 hr by agarose gel electrophoresis

SMILES | Activity [1] | Activity [2] | Activity [3] | Activity [4]
CN1CCCN(Cc2ccc(F)cc2)P12=NP(Cl)(Cl)=NP(Cl)(Cl)=N2 (configuration not stated) | Active | Active |  | 
CCN1CCN(Cc2ccc(F)cc2)P12=NP(Cl)(Cl)=NP(Cl)(Cl)=N2 (configuration not stated) | Active |  | Active | 
CN1CCN(Cc2ccc(F)cc2)P12=NP(Cl)(Cl)=NP(Cl)(Cl)=N2 (configuration not stated) | inactive | Active |  | inactive
